According to patent US20190365774A1, “COMBINATION THERAPY OF BACE-1 INHIBITOR AND ANTI-N3PGLU ABETA ANTIBODY” (Eli Lilly and Company, priority 2016, published 2019):

B1: Antibody I: anti-N3pGlu Abeta antibody, light chain SEQ ID NO: 12 and heavy chain SEQ ID NO: 11 (antibody)
heavy: QVQLVQSGAEVKKPGSSVKVSCKASGYTFTDYYINWVRQAPGQGLEWMGWINPGSGNTKYNEKFKGRVTITADESTSTAYMELSSLRSEDTAVYYCTREGETVYWGQGTLVTVSSASTKGPSVFPLAPSSKSTSGGTAALGCLVKDYFPEPVTVSWNSGALTSGVHTFPAVLQSSGLYSLSSVVTVPSSSLGTQTYICNVNHKPSNTKVDKKV[sequence of human IgG1 Fc not given]
light: DVVMTQSPLSLPVTLGQPASISCKSSQSLLYSRGKTYLNWFQQRPGQSPRRLIYDVSKLDSGVPDRFSGSGSGTDFTLKISRVEAEDVGVYYCVQGTHYPFTFGQGTKLEIKRTVAAPSVFIFPPSDEQLKSGTASVVCLLNNFYPREAKVQWKVDNALQSGNSQESVTEQDSKDSTYSLSSTLTLSKADYEKHKVYACEVTHQGLSSPVTKSFNRGEC
B2: Antibody II: anti-N3pGlu Abeta antibody, light chain SEQ ID NO: 13 and heavy chain SEQ ID NO: 11 (antibody)
heavy: B1 heavy
light: DIQMTQSPSTLSASVGDRVTITCKSSQSLLYSRGKTYLNWLQQKPGKAPKLLIYAVSKLDSGVPSRFSGSGSGTEFTLTISSLQPDDFATYYCVQGTHYPFTFGQGTKLEIKRTVAAPSVFIFPPSDEQLKSGTASVVCLLNNFYPREAKVQWKVDNALQSGNSQESVTEQDSKDSTYSLSSTLTLSKADYEKHKVYACEVTHQGLSSPVTKSFNRGEC

Target: T1, Aβ […] peptide (Homo sapiens)
T1 construct: flowing pE3-42 Aβ peptide or Aβ 1-40 peptide
Experiment: Binding by surface plasmon resonance (BIACORE 3000)
Conditions: 25° C., HBS-EP buffer, peptide 100 nM down to 3.125 nM
Description: The binding affinity and kinetics of an anti-[…] […] The binding affinity is measured by capturing the anti-[…] Aβ antibody via immobilized protein A on a BIACORE® CMS chip, and flowing pE3-42 Aβ peptide or Aβ 1-40 peptide, starting from 100 nM in 2-fold serial dilution down to 3.125 nM. The experiments are carried out at 25° C. in HBS-EP buffer (GE Healthcare BR100669; 10 mM HEPES, 150 mM NaCl, 3 mM EDTA, 0.05% surfactant P20, pH 7.4). For each cycle, the antibody is captured with 5 μL injection of antibody solution at a 10 μg/mL concentration with 10 μL/min. flow rate. The peptide is bound with 250 μL injection at 50 μL/min, and then dissociated for 10 minutes. The chip surface is regenerated with 5 μL injection of glycine buffer at pH 1.5 at 10 μL/mL flow rate. The data is fit to a 1:1 Langmiur binding model to derive kon, koff, and to calculate KD.

Molecule | binding to Aβ 1-40
B1 | No appreciable binding
B2 | No appreciable binding
